Data set [1] concerns the target Human immunodeficiency virus type 1 reverse transcriptase (Human immunodeficiency virus 1) (UniProt Q72547).
For data set [2], the system named is Human immunodeficiency virus 1. Kind of data set: Ratio of efavirenz EC50 to compound EC50 for wild type HIV-1 NL4-3 infected in human MT4 cells. It is filed as functional.
The nature of data set [3]: Selectivity index, ratio of CC50 for human MT4 cells to EC50 for wild type HIV-1 NL4-3 infected in human MT4 cells. The following applies: read-out: Ratio CC50/EC50. Type of data set: toxicity, cell-based. In a few lines: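 Ratio of CC50 to EC50, both from MTT readings in MT-4 cells at day 5. CC50 was taken in mock-infected cells and EC50 in cells infected with wild-type NL4-3. Values are means of at least two experiments.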

Some results are limits rather than exact numbers.

The molecule `CCC(C)Sc1nc(C(C)c2c(F)cccc2Cl)cc(=O)[nH]1` (racemic) displayed an ID50 in data set [1] of 8 nM.

`CC[C@@H](C)Sc1nc([C@H](C)c2c(F)cccc2Cl)cc(=O)[nH]1` registered an ID50 in data set [1] of 3.76 nM.

Turning to `Cc1c(C(C)c2c(F)cccc2Cl)nc(SC(C)C)[nH]c1=O` (racemic), the Ratio EC50 in data set [2] was determined as 175. For the same molecule, the selectivity ratio in data set [3] is over 375000.

Regarding `Cc1c([C@H](C)c2c(F)cccc2Cl)nc(SC(C)C)[nH]c1=O`, the ID50 in data set [1] was 9 nM. In addition, in data set [3], the selectivity ratio is over 783000.

`CC[C@@H](C)Sc1nc([C@@H](C)c2c(F)cccc2Cl)cc(=O)[nH]1` yielded an ID50 in data set [1] of 40.5 nM.

Take `CC[C@H](C)Sc1nc([C@@H](C)c2c(F)cccc2Cl)cc(=O)[nH]1`: in data set [1], the ID50 was 547 nM.

`CCCCSc1nc(C(C)c2c(F)cccc2Cl)cc(=O)[nH]1` (racemic): the selectivity ratio in data set [3] is over 243000.

In turn, `CC[C@H](C)Sc1nc([C@H](C)c2c(F)cccc2Cl)cc(=O)[nH]1` (racemic) showed an ID50 in data set [1] of 26.9 nM.

Turning to `CCC(C)Sc1nc(C(C)c2c(F)cccc2Cl)c(C)c(=O)[nH]1` (racemic), in data set [2], the “Ratio EC50” value is given as 23. The same molecule gave an ID50 in data set [1] of 0.3 nM. Moreover, the selectivity ratio in data set [3] was over 5000.

Turning to `CC[C@@H](C)Sc1nc([C@@H](C)c2c(F)cccc2Cl)c(C)c(=O)[nH]1`, the ID50 in data set [1] was 14 nM. Besides, the selectivity ratio in data set [3] is over 50300.

For the molecule `CC[C@H](C)Sc1nc([C@H](C)c2c(F)cccc2Cl)c(C)c(=O)[nH]1` (racemic), the ID50 in data set [1] worked out at 5920 nM. In data set [3], the selectivity ratio is over 1.6.

For `CC[C@@H](C)Sc1nc([C@H](C)c2c(F)cccc2Cl)c(C)c(=O)[nH]1`, the ID50 in data set [1] amounted to 1 nM. In data set [3], the selectivity ratio was over 1.17e+06.

Regarding `Cc1c([C@@H](C)c2c(F)cccc2Cl)nc(SC(C)C)[nH]c1=O`, the ID50 in data set [1] stood at 3350 nM. In data set [3], the selectivity ratio was over 169.

As for `CC[C@H](C)Sc1nc([C@@H](C)c2c(F)cccc2Cl)c(C)c(=O)[nH]1`, the ID50 in data set [1] turned out to be 4660 nM. For the same molecule, the selectivity ratio in data set [3] was over 12.8.

For the origin of these results see ChEMBL document CHEMBL3286172, “Exploring the role of 2-chloro-6-fluoro substitution in 2-alkylthio-6-benzyl-5-alkylpyrimidin-4(3H)-ones: effects in HIV-1-infected cells and in HIV-1 reverse transcriptase enzymes” (J Med Chem, 2014).
